Construct, isoform or probe ends are uncertain for at least one entry.
Assays:
[1] = biological target: PhoP-P (phosphorylated PhoP) (UniProt P71814); test: DNase I footprinting; details: recombinant protein, protein details: His tag (pET15b) cleaved with thrombin, label: 5' 32P forward strand, probe letters rebuilt from the primers and the genome
[2] = biological target: PhoP-P (phosphorylated PhoP) (UniProt P71814); test: EMSA; details: recombinant protein, protein details: His tag (pET15b) cleaved with thrombin, label: 5' IRD700 or DY682
[3] = about 50-70 bp protected, covers DRs
[4] = binding at 2 uM PhoP-P, probe letters rebuilt from the primers and the genome
[5] = probe letters rebuilt from the primers and the genome

“ACCGCGGGCTGCCCATGCCACGACAAACCGAAGTAGGGCCCAGTGCCCCAGTAGCACAGCCGCTTAGAACTAAAGAGCCACCAAAGACACAGCTACATCGAAGGATTGCTAGTTAGGCTACGTATCGCCTCCGGCATTGGGCTTGGGGTCGGCGGCGTCAGGCACTGGTGCAGATAGGGGTGCATGGACGTTGGCTGA (double strand) [pks2 footprint probe]”: binds [1, 3].
“AGACGTACAGCAAACTCCCAGTCATACACCGATGCATTTCAAGGTGCCTGTGATCCCCTAAATGCAGG (double strand) [lipFa1]”: binds ([2]; binding at 2 uM PhoP-P).
“ATCAATCGCAAATCTCGCACTTCCCGTTTACGTAGTTGCTCCAACCAGACGCAGCCCAATTCGGGCTCCTCCCCCCATCAATCATTCGGTGGCGCGAAGTTCACCAGAGTCCCGGACACGCTCACGCGAACTACCTGCATTTAGGGGATCACAGGCACCTTGAAATGCATCGGTGTATGACTGGGAGTTTGCTGTACGTCTATTGGTAAGTGCGAATTCGCC (double strand) [lipFa]”: binds ([2]; complete shift at 8 uM PhoP-P (200:1), probe letters rebuilt from the primers and the genome).
“CATCAATCATTCGGTGGCGCGAAGTTCACCAGAGTCCCGGACACGCTCACGCGAACTACCTGCATTTAGGGGATCACAGGCACCTTGAAATGCATCGGTGTATGACTGGGAGTTTGCTGTACGTCTATTGGTAAGTGCGAATTCGCCGCCGGCTACCCGCACCCCGTAGAATCGCAAGCCGATATCGGC (double strand) [lipF footprint probe]”: binds ([1]; 30-35 bp protected, DR3 not protected).
“CGAAGAACACATTATCCAGCCAACTCACAGGCCGTTGCCATGCCGCTACCAGACGTCGTAGGCCTGGGAAAGTTAAGGTAGC (double strand) [msl3a2]”: binds [2, 4].
“CGGACATTGGTGCTACATTACCGTTTCGCGCGATCTCCGATAACCCAAGCGGGCAGGGGGATGGTTGGCGATAGCGATGCTGATCATAACGTTCTGCAATGCTGTGCATGTGCTGAAACAGGTTGACGCAGAGTCGAAGTCGGTGTACGCAGGGGCGCCGTGAGGGGCGTCACGGTCGAGTTGCTAAGCCGTGCGTTCCAT (double strand) [fadD21 footprint probe]”: binds [1, 3].
“CGTCTGGTAGCGGCATGGCAACGGCCTGTGAGTTGGCTGGATAAT (double strand) [msl3a1]”: binds ([2]; binding at 2 uM PhoP-P).
“CTGCGTACACCGACTTCGACTCTGCGTCAACCTGTTTCAGCACATGCACAGCATTGCAGAACGTTATGATCAGCATCGCTATCGC (double strand) [fadD21b]”: binds [2, 4].
“GACTGTTAGCAGACTACTGGCAACGAGCTTTCAGGAATTA (double strand) [Protect40]”: binds [2].
“GAGTCGGACATTGGTGCTACATTACCGTTTCGCGCGATCTCCGATAACCCAAGCGGGCAGGGGGATGGTTGGCGATAGCGATGCTGATCATAACGTTCTGCAATGCTGTGCATGTGCTGAAACAGGTTGACGCAGAGTCGAAGTCGGTGTACGCAGGGGCGCCGTGAGGGGCGTCACGGTCGAGTTGCTAAGCCGTGCGTTCCATGGCC (double strand) [fadD21]”: binds [2, 5].
“TACCAACACATTCGGGCTCAGGATTGTTTAGCGTACTAACTTCATGGTAGTGGCTCAAGACGAAAGCATCGCATGCTGCAAGGTCCGATACAACGGGAAAACTGTTGTGGGACTTGTTAATCTGCAGGCCACAGCACGACGAAGAACACATTATCCAGCCAACTCACAGGCCGTTGCCATGCCGCTACCAGACGTCGTAGGCCTGGGAAAGTTAAGGTAGCAACACTGCTCGAC (double strand) [msl3a]”: binds [2, 5].
“TAGCACAGCCGCTTAGAACTAAAGAGCCACCAAAGACACAGCTACATCGAAGGATTGCTAGTTAGGCTACGTATCGCCTCCGGCATTGGGCTTGGGGTCGGC (double strand) [pks2d]”: binds [2, 4].
“TAGCACAGCCGCTTAGAACTAAAGAGCCACCAAAGACACAGCTACATCGAAGGATTGCTAGTTAGGCTACGTATCGCCTCCGGCATTGGGCTTGGGGTCGGCGGCGTCAGGCACTGGTGCAGATAGGGGTGCATGGACGTTGGCTGA (double strand) [pks2]”: binds [2, 5].
“TCATGGTAGTGGCTCAAGACGAAAGCATCGCATGCTGCAAGGTCCGATACAACGGGAAAACTGTTGTGGGACTTGTTAATCTGCAGGCCACAGCACGACGAAGAACACATTATCCAGCCAACTCACAGGCCGTTGCCATGCCGCTACCAGACGTCGTAGGCCTGGGAAAGTTAAGGTAGCAACACTGCTCGACAGCCACAGCAGCATGCACCGCGCGTGTGA (double strand) [msl3 footprint probe]”: binds ([1]; about 50-70 bp protected, DR3 partial).

— paper PMC3413638
